The IC50 is the concentration that gives 50% inhibition.

Amino acid sequences for entries named in this document (tags omitted).
UniProt Q8VNN2, whole entry, looked up: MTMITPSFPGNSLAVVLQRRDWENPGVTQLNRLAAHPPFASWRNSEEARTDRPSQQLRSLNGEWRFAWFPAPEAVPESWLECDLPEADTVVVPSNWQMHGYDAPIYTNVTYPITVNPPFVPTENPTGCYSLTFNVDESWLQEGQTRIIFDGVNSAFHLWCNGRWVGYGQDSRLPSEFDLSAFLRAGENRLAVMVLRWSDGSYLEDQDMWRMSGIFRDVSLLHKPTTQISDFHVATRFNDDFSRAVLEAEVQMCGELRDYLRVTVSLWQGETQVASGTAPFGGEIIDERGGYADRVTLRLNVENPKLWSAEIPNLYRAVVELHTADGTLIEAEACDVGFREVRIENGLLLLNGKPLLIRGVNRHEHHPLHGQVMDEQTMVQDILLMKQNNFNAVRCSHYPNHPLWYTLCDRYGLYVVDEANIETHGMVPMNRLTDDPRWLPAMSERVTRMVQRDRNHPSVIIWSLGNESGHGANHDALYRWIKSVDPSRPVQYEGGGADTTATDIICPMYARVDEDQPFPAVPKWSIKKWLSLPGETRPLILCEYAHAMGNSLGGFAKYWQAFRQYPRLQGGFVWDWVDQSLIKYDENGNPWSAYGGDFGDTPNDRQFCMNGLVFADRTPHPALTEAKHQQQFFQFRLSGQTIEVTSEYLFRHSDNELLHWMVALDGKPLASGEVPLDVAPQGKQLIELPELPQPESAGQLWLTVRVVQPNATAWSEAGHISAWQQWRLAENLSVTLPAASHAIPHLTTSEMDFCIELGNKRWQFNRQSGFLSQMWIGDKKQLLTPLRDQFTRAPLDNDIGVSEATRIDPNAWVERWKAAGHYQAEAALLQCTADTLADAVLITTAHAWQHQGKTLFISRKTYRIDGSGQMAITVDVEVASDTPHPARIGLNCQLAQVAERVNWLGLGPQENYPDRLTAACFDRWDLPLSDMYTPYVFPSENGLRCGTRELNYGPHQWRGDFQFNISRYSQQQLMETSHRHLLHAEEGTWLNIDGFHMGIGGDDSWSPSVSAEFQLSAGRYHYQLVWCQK

The target in the assay is Beta-galactosidase (Escherichia coli) (UniProt Q8VNN2). Briefly: CXCR6 receptor antagonists, dose response, cell-based, beta-arrestin, DiscoveRx, APJ panel, uHTS hits (AID 624129). The settings on record: CXCR6 beta-arrestin (DiscoveRx) antagonist cell assay, b-galactosidase.
The mark [1] stands for this setting: dose range 1, mean IC50 across replicates.

Calls of active or inactive are those of the source. How the calls were made is not given here.

With `CN(C)C(=O)c1cc([N+](=O)[O-])cc2c1-c1c(cc([N+](=O)[O-])cc1[N+](=O)[O-])C2=O`, the IC50 (dose range 1) is inactive: > 80 µM and the IC50 under setting [1] is more than 80 µM.

For `C[N+]1=C2C=CC=CC=C2SC12C([N+](=O)[O-])=CC([N+](=O)[O-])=C[C-]2[N+](=O)[O-]` (centres undefined), the IC50 entry (dose range 1) is “inactive”. The compound further showed an IC50 under setting [1] of 51.5 µM.

The record behind these values is PubChem BioAssay AID624129 (Sanford-Burnham Center for Chemical Genomics, 2012).
